# Results as given in ChEMBL document CHEMBL1811908, “Design of HIV-1 integrase inhibitors targeting the catalytic domain as well as its interaction with LEDGF/p75: a scaffold hopping approach using salicylate and catechol groups” (Bioorg Med Chem, 2011).
# Target: Human immunodeficiency virus type 1 integrase (Human immunodeficiency virus 1) (UniProt Q7ZJM1)
# Test: Selectivity ratio of IC50 for wild-type HIV1 integrase strand transfer activity over IC50 for recombinant wild-type HIV1 integrase 3'-processing activity
compound,measurement,value
O=C(NCc1ccc(F)cc1)c1cc(S(=O)(=O)N2CCCCC2)cc(O)c1O,Ratio IC50,> 40
